# Fitness of HIV-1 LAI Vif variants in SupT1-APOBEC3G cells

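A pool of vif mutants was passaged twice, 72 h each, on SupT1 cells that express APOBEC3G. Each of three replicates was sequenced after round two and set against the merged round-one pool.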

Scanned stretch, residues 12 to 115 of Vif from HIV-1 LAI (a laboratory-adapted subtype B strain):
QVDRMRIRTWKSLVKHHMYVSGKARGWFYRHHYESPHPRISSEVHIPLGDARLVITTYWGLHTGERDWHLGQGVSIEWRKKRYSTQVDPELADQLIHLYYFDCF

The score is log2 enrichment against the wild-type codon: higher is better tolerated, lower is depleted.
Each entry names the wild-type residue, its position and the residue put in its place.
The median of three replicates is given, with the replicates in brackets.
Input reads are the counts in the merged round-one pool, before selection.
Not every substitution is listed.
Positive scores are uncertain; some enriched variants did not exclude APOBEC3G in a separate test.
The scan is noisy: the rank correlation of replicates is about 0.4 to 0.65, and variants with under about 50 input reads tend to read too high.

mutation	input reads	median score
S95I	741	-3.23 (-3.43 -3.23 0.55)
S95N	50	1.24 (1.24 4.75 1.17)
S95R	560	0.52 (1.21 -0.48 0.52)
S95T	1138	-0.59 (-0.59 -1.21 0.10)
T96A	625	-3.81 (-2.55 -3.81 -4.28)
T96C	274	-1.81 (-1.20 -3.57 -1.81)
T96D	348	-4.21 (-4.21 -5.50 -3.43)
T96E	394	-1.77 (3.28 -1.77 -2.03)
T96F	349	-0.01 (-0.01 -1.95 4.74)
T96H	140	-1.31 (-1.31 -4.19 -0.84)
T96K	342	-4.10 (-2.60 -4.10 -4.63)
T96Q	431	-2.46 (-4.52 1.39 -2.46)
T96R	76	0.43 (0.48 0.43 -0.59)
T96S	335	-1.94 (-2.04 -1.94 -1.66)
T96W	331	-2.55 (-2.55 -2.20 -3.00)
T96Y	646	-3.51 (-3.51 -4.47 -0.19)
Q97C	318	-0.69 (-0.69 2.87 -0.76)
Q97F	327	-2.25 (-1.59 -3.32 -2.25)
Q97G	30	-0.67 (-0.67 -4.29 3.10)
Q97H	460	1.52 (3.50 1.52 -0.58)
Q97I	42	3.67 (6.17 3.67 2.00)
Q97N	411	-0.93 (-3.69 -0.73 -0.93)
Q97T	16	-1.84 (1.44 -3.40 -1.84)
Q97V	411	-3.31 (0.83 -3.52 -3.31)
Q97W	326	-1.76 (-0.92 -4.90 -1.76)
Q97Y	386	-2.93 (-1.53 -4.49 -2.93)
V98A	329	-3.39 (-2.55 -4.28 -3.39)
V98C	26	1.97 (7.08 1.92 1.97)
V98E	386	-3.72 (-3.63 -3.72 -4.10)
V98F	865	-1.21 (-3.41 0.58 -1.21)
V98G	58	-1.64 (-1.64 -5.25 -0.24)
V98I	430	-2.20 (-2.20 -3.08 -0.04)
V98L	705	-2.29 (-2.29 -2.46 -1.36)
V98N	366	-3.18 (-3.06 -4.43 -3.18)
V98P	657	-1.76 (-1.22 -2.55 -1.76)
V98Q	653	-3.25 (-3.25 -2.95 -3.48)
V98R	46	-3.33 (-2.89 -3.33 -3.37)
V98T	138	-1.85 (-1.66 -1.85 -2.62)
V98W	370	-2.28 (-1.64 -2.70 -2.28)
D99C	428	-2.87 (-3.30 -0.09 -2.87)
D99E	74	0.02 (-0.78 0.02 0.35)
D99F	393	-3.66 (-3.66 -4.09 -1.92)
D99G	457	-1.81 (-1.81 -0.62 -2.27)
D99H	409	-0.67 (-1.80 1.40 -0.67)
D99K	448	-3.79 (-4.59 -3.79 -2.39)
D99L	1142	-2.39 (-2.39 -0.66 -2.70)
D99N	333	-1.96 (0.18 -3.67 -1.96)
D99P	226	-3.74 (-1.49 -3.74 -4.06)
D99Q	114	-2.34 (-1.88 -3.40 -2.34)
D99R	287	-4.41 (-2.36 -5.95 -4.41)
D99V	28	4.96 (1.26 4.96 5.01)
D99W	498	-2.61 (-3.16 -2.61 -2.54)
D99Y	1041	-1.93 (-2.18 -1.93 0.33)
P100A	99	-0.05 (0.10 -0.65 -0.05)
P100C	19	-0.05 (-0.05 -3.66 0.23)
P100D	67	-3.86 (-3.43 -3.86 -3.89)
P100E	101	-0.57 (-0.32 -2.58 -0.57)
P100K	98	0.11 (0.11 -2.82 0.21)
P100L	594	-2.11 (-1.81 -2.11 -2.78)
P100N	110	-2.25 (-2.55 -2.25 -1.43)
P100S	20	0.61 (0.61 -0.56 6.24)
P100T	532	-1.03 (-2.50 0.30 -1.03)
P100W	167	-1.28 (-1.28 -3.95 2.04)
P100Y	526	-2.60 (-1.87 -3.06 -2.60)
E101A	528	-2.11 (-2.67 0.33 -2.11)
E101C	298	-2.74 (-2.74 -4.18 -2.14)
E101D	395	-1.43 (-1.43 1.36 -2.75)
E101G	199	-2.64 (-2.64 -0.87 -3.88)
E101H	189	-2.57 (-2.57 -3.29 -0.44)
E101I	898	-2.43 (-2.18 -3.50 -2.43)
E101K	595	-2.52 (-1.50 -3.08 -2.52)
E101N	1891	-1.59 (-1.70 -1.59 -1.53)
E101Q	963	-2.28 (-1.09 -2.28 -2.61)
E101R	82	-0.50 (-0.23 -0.50 -1.38)
E101S	107	-3.36 (-4.07 -3.36 -1.40)
E101T	356	-3.13 (-1.72 -3.25 -3.13)
L102A	438	-2.97 (-2.97 -0.14 -3.43)
L102C	303	-3.75 (-4.03 -3.71 -3.75)
L102D	46	-2.91 (-2.91 -3.33 -1.78)
L102E	165	-5.16 (-1.93 -5.16 -5.20)
L102F	169	-1.33 (-3.19 2.23 -1.33)
L102G	176	-3.71 (-1.37 -5.25 -3.71)
L102H	294	-2.40 (-2.40 2.05 -3.22)
L102I	187	-3.33 (-3.33 -4.12 -1.68)
L102K	63	-3.04 (-3.35 -3.04 -0.65)
L102N	111	-4.17 (-4.17 -2.71 -4.63)
L102P	278	-3.63 (-3.90 -1.05 -3.63)
L102R	24	-1.98 (-1.98 3.89 -2.44)
L102V	130	-2.70 (-2.07 -2.70 -3.27)
L102Y	104	-0.90 (-0.90 -2.62 -0.29)
A103C	30	-1.16 (-0.69 -4.31 -1.16)
A103D	198	-3.12 (-1.27 -3.84 -3.12)
A103E	105	-2.95 (-1.74 -3.29 -2.95)
A103F	449	-2.92 (-2.25 -4.10 -2.92)
A103G	29	-2.70 (-2.22 -4.26 -2.70)
A103H	176	-4.81 (-4.81 -3.38 -5.28)
A103I	291	-3.19 (-2.72 -3.47 -3.19)
A103L	182	-1.39 (-1.39 -4.08 2.77)
A103N	196	-1.50 (-1.50 -4.19 2.68)
A103Q	18	3.81 (3.81 5.19 -0.44)
A103V	608	-3.60 (-1.84 -5.16 -3.60)
A103Y	307	-2.62 (0.01 -3.94 -2.62)
D104A	268	-2.63 (-2.63 -7.40 -1.25)
D104C	823	-0.18 (-0.18 4.12 -1.41)
D104E	53	1.42 (1.42 -0.55 2.10)
D104F	476	-3.56 (-3.09 -5.06 -3.56)
D104H	134	-0.26 (-0.98 -0.26 0.05)
D104K	91	-4.26 (-2.30 -4.26 -4.34)
D104L	202	-2.68 (-2.70 0.44 -2.68)
D104N	1343	-2.73 (-1.53 -5.08 -2.73)
D104P	32	-2.77 (-2.39 -2.77 -2.85)
D104S	98	-3.15 (-3.99 -3.15 -2.87)
D104V	17	-1.49 (-1.49 -1.14 -1.96)
D104Y	2144	-2.88 (-2.88 -3.14 -1.33)

The first 12 entries again:

mutation,input reads,median score
S95I,741,-3.23 (-3.43 -3.23 0.55)
S95N,50,1.24 (1.24 4.75 1.17)
S95R,560,0.52 (1.21 -0.48 0.52)
S95T,1138,-0.59 (-0.59 -1.21 0.10)
T96A,625,-3.81 (-2.55 -3.81 -4.28)
T96C,274,-1.81 (-1.20 -3.57 -1.81)
T96D,348,-4.21 (-4.21 -5.50 -3.43)
T96E,394,-1.77 (3.28 -1.77 -2.03)
T96F,349,-0.01 (-0.01 -1.95 4.74)
T96H,140,-1.31 (-1.31 -4.19 -0.84)
T96K,342,-4.10 (-2.60 -4.10 -4.63)
T96Q,431,-2.46 (-4.52 1.39 -2.46)

Data from the supplement of Langley et al. 2025, preprint, doi:10.1101/2025.10.20.683452.